## Screening data, single-dose tests

From ChEMBL document CHEMBL3988442, “University of Dundee, Small-Polar-MMV Screening Library” (2021).

A: 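Growth of Mycobacterium tuberculosis over 3 days (7H9 medium with glucose and tyloxapol); the read-out is not stated. Compounds at 50 µM. Higher reads as more growth inhibition (inferred: compounds with an IC50 in retests scored well above the rest). Of about 69,000 compounds tested this way, about 760 (1.1%) reached 50% or more in at least one test.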
B: 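Whole-cell growth test on Mycobacterium tuberculosis, read after 4 days in a medium based on cholesterol and the lipid DPPC; the read-out is not stated. Concentration: 50 µM. The record gives no direction; compounds that gave an IC50 in retests scored well above the rest, so higher reads as more growth inhibition. About 69,000 compounds were tested under these conditions; 0.54% (about 370) showed 50% or more at least once.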

Results are given as percent effect. The controls that fix the scale are not given in the record; negative values are as filed. This is part of a subset picked to be rich in strong results. Two or more numbers in one place are separate tests of the same structure; such repeats can differ widely. A dash means the value is not listed here; it may have been measured.

| # | compound | A | B |
|---|---|---|---|
| 1 | `O=C(O)C(F)(F)F.O=C1N(Cc2ccncc2)CCC12CCCN(c1ncc(F)cn1)C2` (configuration not stated) | - | 23.86% |
| 2 | `Cc1nc(CCN)cc(N2CCOc3ccc(Cl)cc3C2)n1` | 54.98% | - |
| 3 | `Cc1cc(C)n(-c2cncc(NCCNC(=O)C(C)C)n2)n1` | 16.35% | - |
| 4 | `CC(=O)N1CCCC1c1cccc(Cc2ccccc2Cl)n1` (configuration not stated) | 36.47% | - |
| 5 | `Cl.Nc1cccnc1N1CCCCCC1` | 22.83% and 23.98% | - |
| 6 | `Cc1cnn(CC2CCCN2Cc2ncc(-c3ccc(F)cc3)o2)c1` (configuration not stated) | 96.79% | - |
| 7 | `O=C(C1CC1)N1CCCC1c1nnc2n1CCCCC2` (configuration not stated) | - | -25.48% |
| 8 | `Cc1nccn1CCCNc1ccc(Cl)c(C#N)n1` | -4.38% | 5.843% |
| 9 | `c1cn(Cc2ccc(N3CCCN(C4CCCC4)CC3)nc2)cn1` | -40.81% | -6.518% |
| 10 | `NC(=O)C1=NC2=NS(=O)(=O)c3ccccc3N2N1Cc1ccc(Cl)cc1` | 53.43% | 70.54% |
| 11 | `CC(C)c1nccn1C1CCCN(C(=O)c2ccc3[nH]cnc3c2)C1` (configuration not stated) | - | 3.381% |
| 12 | `NC(=O)c1ccc(CNC2CCCSC2)cc1` (configuration not stated) | -4.651% | 13.63% |
| 13 | `Cn1cc(CNCC2(O)CCCN(Cc3ccc(F)c(F)c3)C2=O)cn1` (configuration not stated) | -33.76% | - |
| 14 | `CC(C)c1nc(N2CCC(N3CCCCCC3)CC2)c2cnn(C)c2n1` | 53.65% | - |
| 15 | `Cn1cnc2c1CCN(c1ccnc(-c3ccccc3)n1)C2` | 54.62% | 54.82% |
| 16 | `O=C(NCCC1=CCCCC1)c1ccc(-n2cccc2)nc1` | -17.68% | -12.03% |
| 17 | `COc1cccc(C(CO)NC(=O)Cc2cccc(C)c2)c1` (configuration not stated) | - | 6.469% and -2.447% |
| 18 | `CCC(C)Oc1ccccc1CN1Cc2ncccc2C1=O` (configuration not stated) | -6.249% | - |
| 19 | `COc1ccc(C(=O)NCCCNc2ncccn2)cc1F` | -2.613% | 4.414% |
| 20 | `CCc1ncc(CN(C)C2CCN(C(C)C)CC2)cn1.O=C(O)CC(O)(CC(=O)O)C(=O)O` | -8.711% | -3.957% |
| 21 | `COc1cc(CN2CCC(COCc3ccccc3)CC2)cc(OC)c1` | 23.82% | 10.02% |
| 22 | `Cc1cc(C(=O)N2CCN(Cc3ccsc3)CC2)n(C)n1` | -4.058% | -1.382% |
| 23 | `CCCc1nnc(NC2CCN(C3CCCC3)CC2)o1` | 20.57% | - |
| 24 | `O=C(NCC(=O)N1CCc2ccccc2C1)c1ccoc1` | -24.12% | - |
| 25 | `Cn1cc(CNCCNc2ncc(Cl)cc2Cl)cn1` | -35.49% | - |
| 26 | `O=C(O)C(F)(F)F.O=C(c1c[nH]cn1)N1CCC(F)(F)C2(CCN(c3cccc(F)c3)C2)C1` (configuration not stated) | 63.92% and 8.045% | - |
| 27 | `CC(C)N1CC2(CCCN(c3ncc(Cl)cc3F)C2)CCC1=O` (configuration not stated) | -2.46% | - |
| 28 | `COC1CCN(c2ccc(F)cc2CN(C)CC(N)=O)CC1` | 38.68% | - |
| 29 | `C[C@@H]1CN(C2CCN(Cc3nn(C)c4cccc(Cl)c34)CC2)C[C@H](C)O1` | 3.416% | - |
| 30 | `COc1ccc(OC)c(C2CC(=O)Nc3nc(N4CCOCC4)sc32)c1` (configuration not stated) | 56.53% | - |
| 31 | `CC1CCCCN1C(=O)c1ccc2c(c1)OCCCO2` (configuration not stated) | - | -45.21% |
| 32 | `O=S1(=O)CCC(CNc2cc(-c3ccccc3)nc3ccnn23)C1` (configuration not stated) | - | -17.27% |
| 33 | `Br.Cc1cccc(N(CC(=O)c2ccccc2)C2=NCCCCC2)c1` | 54.95% | 25.53% |
| 34 | `c1ccc(Cc2noc(CN3CCCCC3Cn3cncn3)n2)cc1` (configuration not stated) | -38.87% | - |
| 35 | `Cc1cc(NC(=O)C(C)C)n(-c2nc(C)c(C)c(=O)[nH]2)n1` | 83.18% | - |
| 36 | `CC(C)C(=O)NCCC(=O)N1CCN(c2ccccn2)CC1` | - | 6.863% |
| 37 | `CC(C)Cc1cc(NC(=O)c2ccc(=O)[nH]n2)n(C)n1` | 6.383% | - |
| 38 | `CNc1oc(COc2ccc3c(c2)OCO3)nc1C#N` | -6.656% | 15.64% |
| 39 | `CN(C)c1cc(C(=O)Nc2ccccc2C(=O)NC(C)(C)C)ccn1` | 13.28% and 13.85% | 54.55% |
| 40 | `CN1CCC(N(C)CCC(=O)N2CCN(Cc3cccc(F)c3)CC2)C1` (configuration not stated) | -12.45% | - |
| 41 | `Cc1cc(C(=O)NCC(Cc2cccc(F)c2)N2CCCCC2=O)no1` (configuration not stated) | -2.585% | -14.51% |
| 42 | `Nc1cccnc1N1CCC(O)CC1` | -4.086% and -2.819% | -7.457% |
| 43 | `CCn1ccc(C(=O)N(C)Cc2cnn(-c3cccc(OC)c3)c2)n1` | 13.03% | - |
| 44 | `CC(C)COc1cncc(N(C)C2CCN(c3ncccn3)CC2)n1` | 66.72% | 52.19% |
| 45 | `CCC(CNC(=O)c1ccc(Br)o1)N1CCc2ccccc2C1` (configuration not stated) | 59.25% | - |
| 46 | `CCN(CCn1c(=O)oc2ccccc21)CC1CCOCC1` | - | -10.35% and -1.764% |
| 47 | `Cn1ncc2c(NCCC34CCCN3CCC4)nc(C3CCCC3)nc21` | 71.38% and 24.93% | - |
| 48 | `[H][C@@]12CC[C@H](Oc3ccccc3Cl)[C@]1([H])CN(C(=O)CNC(C)=O)C2` | - | 55.34% |
| 49 | `O=C(c1cc(C2CC2)[nH]n1)N1CCN(Cc2ccncc2)CC1` | -17.64% and -2.127% | 9.565% |
| 50 | `[H][C@]12CN(C(=O)c3ccno3)CCN1C(=O)N(Cc1ccc(F)cc1)C2` | 0.8848% and -1.038% | - |
| 51 | `CC(C)c1noc(C2CCCN2S(=O)(=O)N2CCCCCC2)n1` (configuration not stated) | -11.43% | - |
| 52 | `CCCc1ccc2oc(C(=O)N3CCN(CCOC)CC3)c(C)c2c1` | 66.74% | 63.66% |
| 53 | `CN1CCN([C@@H]2CCN(CC3=Cc4cc(Cl)ccc4OC3)C[C@H]2O)CC1` | 18.38% | - |
| 54 | `Cc1cc(NC(C)c2csc(C)n2)n2nc(C)c(C)c2n1` (configuration not stated) | 8.472% | - |
| 55 | `CC(C)CCn1ccc(NC(=O)N2CCCC2C(C)(C)O)n1` (configuration not stated) | - | 1.299% |
| 56 | `Nc1nnnn1NCc1cccc(Cl)c1Cl` | 63.32% | -4.751% |
| 57 | `O=C(c1cn[nH]c1)N1CCC2(CCCN(Cc3ccc(F)c(F)c3)C2)C1` (configuration not stated) | 12.7% | - |
| 58 | `N#Cc1cccc(CN2C(=O)C3(CCNCC3)Nc3ccccc32)c1` | 27.08% | - |
| 59 | `CN(C)S(=O)(=O)c1ccc(CN2CCC(C(N)=O)CC2)o1` | 12% and 83.69% | 16.02% |
| 60 | `COC(=O)c1cccc(C(=O)N(C)Cc2ccsc2)c1` | -27.47% | - |
| 61 | `CC(C)Nc1nc(N2CCOCC2)nc2c1CN(Cc1ccoc1)CC2` | 33.5% | -19.56% |
| 62 | `CC(CN1CCOCC1)NC(=O)c1cc(Cl)c2c(c1)OCCO2` (configuration not stated) | 21.89% | - |
| 63 | `Cc1nc2c(c(NCC(O)c3ccccc3Cl)n1)CCNCC2` (configuration not stated) | -5.893% | - |
| 64 | `Cc1cc(NCCNc2cccnc2)nc(N)n1` | -22.85% | - |
| 65 | `CN1CCc2nc(C3CCCCN3Cc3ccccc3Cl)ncc2C1` (configuration not stated) | 5.121% | - |
| 66 | `Cc1cc(C(=O)N2CCCC(c3nccn3Cc3cscn3)C2)on1` (configuration not stated) | 52.72% | - |
| 67 | `FC(F)Oc1ccccc1CN1CCCC(c2nccn2CC2CC2)C1` (configuration not stated) | 70.91% and 31.53% | - |
| 68 | `CN1CCC(c2cccc(Cc3ccccc3)n2)CC1` | 27.16% | - |
| 69 | `Cc1ccc(CNC(CN2CCN(C)CC2)c2ccccc2)cc1C` (configuration not stated) | 52.51% | - |
| 70 | `CC(C)C[C@@H](CO)n1cc(-c2cnc(-c3ccco3)nc2)nn1` | 0.09871% | - |
| 71 | `c1csc(-c2nc(CNCCn3cccn3)cs2)c1` | -38.3% and 6.827% | -3.351% |
| 72 | `Cc1nsc(NC2CCOC3(CCCC3)C2)n1` (configuration not stated) | - | 18.7% |
| 73 | `CCOCCCC(=O)Nc1ccc(OCc2noc(C3CC3)n2)cc1` | 7.434% and -7.877% | - |
| 74 | `Cc1cccc(-c2ccc(C(=O)NCCN3CCOCC3)c(=O)[nH]2)c1` | - | 65.09% |
| 75 | `Cl.c1ccc(CCNc2cccc(C3CCCNC3)n2)cc1` (configuration not stated) | 10.26% | 8.525% |
| 76 | `O=C1N(Cc2ccc(F)c(F)c2)CCCC1(O)CNCc1cccnc1` (configuration not stated) | -3.921% | - |
| 77 | `Cc1cccc2cc(CO)c(N3Cc4cnc(C(C)(C)C)nc4C3)nc12` | 92.11% and 5.848% | - |
| 78 | `COc1cc(NC(=O)c2nc3ccccc3n(C)c2=O)cc(OC)c1` | -1.563% | - |
| 79 | `CCCN(C(=O)c1ccncc1)c1nc2c(s1)CCc1c-2cnn1C` | 50.77% | - |
| 80 | `Cc1ccc2nc(CN(C)Cc3n[nH]c4c3CCCCC4)[nH]c2c1C` | 54.78% | - |
| 81 | `O=C(c1cc(COc2ccc3c(c2)OCO3)[nH]n1)N1CCOCC1` | - | 0.07057% |
| 82 | `Clc1cc(NCc2ccncc2)nc2[nH]ccc12` | -8.731% | - |

Once more, the final 10:

compound	A	B
CCOCCCC(=O)Nc1ccc(OCc2noc(C3CC3)n2)cc1	7.434% and -7.877%	-
Cc1cccc(-c2ccc(C(=O)NCCN3CCOCC3)c(=O)[nH]2)c1	-	65.09%
Cl.c1ccc(CCNc2cccc(C3CCCNC3)n2)cc1 (configuration not stated)	10.26%	8.525%
O=C1N(Cc2ccc(F)c(F)c2)CCCC1(O)CNCc1cccnc1 (configuration not stated)	-3.921%	-
Cc1cccc2cc(CO)c(N3Cc4cnc(C(C)(C)C)nc4C3)nc12	92.11% and 5.848%	-
COc1cc(NC(=O)c2nc3ccccc3n(C)c2=O)cc(OC)c1	-1.563%	-
CCCN(C(=O)c1ccncc1)c1nc2c(s1)CCc1c-2cnn1C	50.77%	-
Cc1ccc2nc(CN(C)Cc3n[nH]c4c3CCCCC4)[nH]c2c1C	54.78%	-
O=C(c1cc(COc2ccc3c(c2)OCO3)[nH]n1)N1CCOCC1	-	0.07057%
Clc1cc(NCc2ccncc2)nc2[nH]ccc12	-8.731%	-